The values below come from ChEMBL document CHEMBL4145559 (ACS Med Chem Lett, 2018).

Experiment [1] deals with Yersinia pestis. The experiment in a line: Antimicrobial activity against Yersinia pestis KIM6+ harboring arabinose inducible type 1 signal peptidase in presence of 2% arabinose.
In experiment [2] the test system is Yersinia pestis. The experiment in a line: Antimicrobial activity against Yersinia pestis KIM6+ harboring arabinose inducible type 1 signal peptidase.

Values after ≈ are worked out from the molar mass of the structure shown.

`C[C@@H](O)[C@H]1C(=O)N2C(C(=O)O)=C(SCCN)S[C@H]12`: in the experiment on Yersinia pestis [1], the MIC (usually the least concentration at which growth counts as inhibited) is 128 µg/mL. Regarding `C[C@@H](O)[C@H]1C(=O)N2C(C(=O)O)=C(S[C@H]3CCNC3)S[C@H]12`, the minimum inhibitory concentration (MIC) in the experiment on Yersinia pestis [1] turned out to be 32 µg/mL. Turning to `C[C@@H](O)[C@H]1C(=O)N2C(C(=O)O)=C(S[C@@H]3CCNC3)S[C@H]12`, the minimum inhibitory concentration (MIC) with Yersinia pestis [1] stood at 128 µg/mL. Regarding `C[C@@H](O)[C@H]1C(=O)N2C(C(=O)O)=C(SCCNC=N)C[C@H]12`, the MIC in the experiment on Yersinia pestis [2] came to 1 µg/mL (≈ 3.34 µM).

On to `C[C@@H](O)[C@H]1C(=O)N2C(C(=O)O)=C(SCCOC(N)=O)S[C@H]12` [Sch-34343], for which the MIC in the experiment with Yersinia pestis [1] is 64 µg/mL. Same read-out and setting: next, `C[C@@H](O)[C@H]1C(=O)N2C(C(=O)O)=C(SCCO)S[C@H]12`: 128 µg/mL; `C[C@@H](O)[C@H]1C(=O)N2C(C(=O)O)=C(SCCNC=N)S[C@H]12`: 128 µg/mL. Still for that read-out and setting: in the case of `C[C@@H](O)[C@H]1C(=O)N2C(C(=O)O)=C(CCc3ccccn3)S[C@H]12` it was 64 µg/mL.

Regarding `CCCCCCCCCCCCCCCC(=O)N(C)[C@H](CO)C(=O)N[C@H](C)C(=O)NCC(=O)N(C)[C@@H]1C(=O)N[C@@H](C)C(=O)N[C@H](C(=O)O)Cc2ccc(O)c(c2)-c2cc1ccc2O`, the results for the MIC against Yersinia pestis [2] and in the experiment on Yersinia pestis [1] were 4 µg/mL (≈ 4.54 µM) and 128 µg/mL, respectively.
